Drawing on ChEMBL document CHEMBL5346973 (J Med Chem, 2023), this text covers Ratio IC50 for 10 compounds.

By UniProt entry, the sequences of proteins in these tests, tags left out. Where a name states a change or a piece, a line headed by the entry shows the natural chain unless it says otherwise.
UniProt P43144: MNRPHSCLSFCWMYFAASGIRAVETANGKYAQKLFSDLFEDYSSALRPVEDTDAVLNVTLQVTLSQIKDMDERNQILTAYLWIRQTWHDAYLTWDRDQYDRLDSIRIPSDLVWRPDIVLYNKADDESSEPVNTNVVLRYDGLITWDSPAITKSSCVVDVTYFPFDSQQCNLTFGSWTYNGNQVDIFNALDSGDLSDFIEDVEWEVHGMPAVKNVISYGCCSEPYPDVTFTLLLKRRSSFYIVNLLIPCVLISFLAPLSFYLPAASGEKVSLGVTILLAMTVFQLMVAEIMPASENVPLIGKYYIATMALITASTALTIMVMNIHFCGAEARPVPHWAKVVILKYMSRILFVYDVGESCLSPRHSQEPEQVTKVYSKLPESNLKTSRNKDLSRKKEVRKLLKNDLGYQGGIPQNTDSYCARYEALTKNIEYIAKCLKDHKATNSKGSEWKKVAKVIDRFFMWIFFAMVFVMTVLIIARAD
UniProt Q9JLB5: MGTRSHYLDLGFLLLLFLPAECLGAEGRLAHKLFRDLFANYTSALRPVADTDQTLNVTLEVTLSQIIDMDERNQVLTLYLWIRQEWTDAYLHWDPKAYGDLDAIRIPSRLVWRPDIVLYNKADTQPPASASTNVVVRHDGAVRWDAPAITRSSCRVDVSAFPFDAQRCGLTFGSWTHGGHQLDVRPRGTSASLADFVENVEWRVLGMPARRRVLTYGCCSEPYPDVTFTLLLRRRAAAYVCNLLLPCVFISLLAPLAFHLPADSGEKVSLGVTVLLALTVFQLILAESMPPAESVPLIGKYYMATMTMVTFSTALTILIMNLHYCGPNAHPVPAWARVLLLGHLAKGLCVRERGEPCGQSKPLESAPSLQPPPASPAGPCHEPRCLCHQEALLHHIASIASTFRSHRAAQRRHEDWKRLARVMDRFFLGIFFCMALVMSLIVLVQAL
UniProt Q05941, whole entry, looked up: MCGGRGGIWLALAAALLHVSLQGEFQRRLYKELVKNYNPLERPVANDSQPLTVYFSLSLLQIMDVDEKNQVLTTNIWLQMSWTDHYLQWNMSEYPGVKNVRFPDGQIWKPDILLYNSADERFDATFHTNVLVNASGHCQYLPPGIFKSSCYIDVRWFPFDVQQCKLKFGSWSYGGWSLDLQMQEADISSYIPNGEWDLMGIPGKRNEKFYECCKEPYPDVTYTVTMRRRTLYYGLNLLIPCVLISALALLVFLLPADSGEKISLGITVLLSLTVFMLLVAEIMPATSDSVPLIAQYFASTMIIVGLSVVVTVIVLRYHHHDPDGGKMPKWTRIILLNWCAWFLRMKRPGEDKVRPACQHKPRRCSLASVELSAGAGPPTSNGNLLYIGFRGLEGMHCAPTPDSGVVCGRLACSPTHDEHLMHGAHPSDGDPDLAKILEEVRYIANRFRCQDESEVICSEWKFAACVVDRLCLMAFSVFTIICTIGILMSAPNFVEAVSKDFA

The species entered for test [1] is Rattus norvegicus. Put plainly: Selectivity ratio of IC50 for rat alpha7 nACh receptor to IC50 for rat alpha9alpha10 nACh receptor.
Test [2] concerns the target Nicotinic acetylcholine receptor alpha9/alpha10 (Rattus norvegicus) (UniProt P43144+Q9JLB5). Put plainly: Antagonist activity at rat alpha9alpha10 nACh receptor expressed in Xenopus oocyte assessed as inhibition of acetylcholine-induced response at -70 mV holding potential by measuring ratio of IC50 by voltage-clamp based electrophysiological assay relative to GeXIVA. The format is cell-based. The note with it: filed as antagonist.

For test [3], the target named is Neuronal acetylcholine receptor subunit alpha-7 (Rattus norvegicus) (UniProt Q05941). Kind of test: Antagonist activity at rat alpha7 nACh receptor expressed in Xenopus oocyte assessed as inhibition of acetylcholine-induced response at -70 mV holding potential by measuring ratio of IC50 by voltage-clamp based electrophysiological assay relative to GeXIVA. The note with it: filed as antagonist.

Molecules are shown by their SMILES.

Regarding `CC[C@H](C)[C@@H]1NC(=O)[C@H](CCCNC(=N)N)NC(=O)[C@H](CCCNC(=N)N)NC(=O)[C@@H](NC(=O)[C@H](Cc2ccc(O)cc2)NC(=O)[C@H](CCCNC(=N)N)NC(=O)[C@H](CCCNC(=N)N)NC(=O)[C@H](CCCNC(=N)N)NC(=O)[C@H](CCCNC(=N)N)NC(=O)[C@H](CC(=O)O)NC(=O)[C@H](Cc2ccc(O)cc2)NC(=O)[C@H](C)NC(=O)[C@H](CO)NC(=O)[C@H](CCCNC(=N)N)NC(=O)[C@@H]2CSSC[C@H](NC(=O)[C@@H](N)[C@@H](C)O)C(=O)N[C@H](CCCNC(=N)N)C(=O)N[C@@H](CO)C(=O)N[C@@H](CO)C(=O)NCC(=O)N[C@@H](CCCNC(=N)N)C(=O)N[C@@H](Cc3ccc(O)cc3)C(=O)N2)CSSC[C@@H](C(=O)N[C@H](C(=O)O)C(C)C)NC(=O)[C@H](C)NC(=O)[C@H](CC(=O)O)NC(=O)[C@H]([C@@H](C)O)NC1=O`, the Ratio IC50 stood at 56.9 in test [1], 1.3 in test [2] and 1.4 in test [3].

For the compound `CC[C@H](C)[C@@H]1NC(=O)[C@H](CCCNC(=N)N)NC(=O)[C@H](CCCNC(=N)N)NC(=O)[C@@H](NC(=O)[C@H](Cc2ccc(O)cc2)NC(=O)[C@H](CCCNC(=N)N)NC(=O)[C@H](CCCNC(=N)N)NC(=O)[C@H](CCCNC(=N)N)NC(=O)[C@H](CCCNC(=N)N)NC(=O)[C@H](CC(=O)O)NC(=O)[C@H](Cc2ccc(O)cc2)NC(=O)[C@@H]2CCCN2C(=O)[C@H](CO)NC(=O)[C@H](CCCNC(=N)N)NC(=O)[C@@H]2CSSC[C@H](NC(=O)[C@@H](N)[C@@H](C)O)C(=O)N[C@@H](CCCNC(=N)N)C(=O)N[C@@H](CO)C(=O)N[C@@H](CO)C(=O)NCC(=O)N[C@@H](CCCNC(=N)N)C(=O)N[C@@H](Cc3ccc(O)cc3)C(=O)N2)CSSC[C@@H](C(=O)N[C@H](C(=O)O)C(C)C)NC(=O)[C@H](C)NC(=O)[C@H](CC(=O)O)NC(=O)[C@H](C)NC1=O`, the values for the Ratio IC50 in test [1], in test [2] and in test [3] were 98.1, 1.7 and 3.2, respectively.

For `CC[C@H](C)[C@@H]1NC(=O)[C@H](CCCNC(=N)N)NC(=O)[C@H](CCCNC(=N)N)NC(=O)[C@@H](NC(=O)[C@H](Cc2ccc(O)cc2)NC(=O)[C@H](CCCNC(=N)N)NC(=O)[C@H](CCCNC(=N)N)NC(=O)[C@H](CCCNC(=N)N)NC(=O)[C@H](CCCNC(=N)N)NC(=O)[C@H](CC(=O)O)NC(=O)[C@H](Cc2ccc(O)cc2)NC(=O)[C@@H]2CCCN2C(=O)[C@H](CO)NC(=O)[C@H](CCCNC(=N)N)NC(=O)[C@@H]2CSSC[C@H](NC(=O)[C@@H](N)[C@@H](C)O)C(=O)N[C@@H](CCCNC(=N)N)C(=O)N[C@@H](CO)C(=O)N[C@@H](CO)C(=O)NCC(=O)N[C@@H](C)C(=O)N[C@@H](Cc3ccc(O)cc3)C(=O)N2)CSSC[C@@H](C(=O)N[C@H](C(=O)O)C(C)C)NC(=O)[C@H](C)NC(=O)[C@H](CC(=O)O)NC(=O)[C@H]([C@@H](C)O)NC1=O`, the Ratio IC50 in test [1] worked out at 105; in test [2], 3.7; in test [3], 7.1.

Regarding `CC[C@H](C)[C@@H]1NC(=O)[C@H](CCCNC(=N)N)NC(=O)[C@H](CCCNC(=N)N)NC(=O)[C@@H]2CSSC[C@H](NC(=O)[C@H](Cc3ccc(O)cc3)NC(=O)[C@H](CCCNC(=N)N)NC(=O)CNC(=O)[C@H](CO)NC(=O)[C@H](CO)NC(=O)[C@H](CCCNC(=N)N)NC(=O)[C@@H](NC(=O)[C@@H](N)[C@@H](C)O)CSSC[C@@H](C(=O)N[C@H](C(=O)O)C(C)C)NC(=O)[C@H](C)NC(=O)[C@H](CC(=O)O)NC(=O)[C@H]([C@@H](C)O)NC1=O)C(=O)N[C@@H](CCCNC(=N)N)C(=O)N[C@@H](CO)C(=O)N1CCC[C@H]1C(=O)N[C@@H](Cc1ccc(O)cc1)C(=O)N[C@@H](CC(=O)O)C(=O)N[C@@H](C)C(=O)N[C@@H](CCCNC(=N)N)C(=O)N[C@@H](CCCNC(=N)N)C(=O)N[C@@H](CCCNC(=N)N)C(=O)N[C@@H](Cc1ccc(O)cc1)C(=O)N2`, the Ratio IC50 turned out to be 189 in test [1], 2.1 in test [2] and 2.3 in test [3].

As to `CC[C@H](C)[C@@H]1NC(=O)[C@H](CCCNC(=N)N)NC(=O)[C@H](CCCNC(=N)N)NC(=O)[C@@H](NC(=O)[C@H](Cc2ccc(O)cc2)NC(=O)[C@H](CCCNC(=N)N)NC(=O)[C@H](CCCNC(=N)N)NC(=O)[C@H](CCCNC(=N)N)NC(=O)[C@H](CCCNC(=N)N)NC(=O)[C@H](CC(=O)O)NC(=O)[C@H](Cc2ccc(O)cc2)NC(=O)[C@@H]2CCCN2C(=O)[C@H](CO)NC(=O)[C@H](CCCNC(=N)N)NC(=O)[C@@H]2CSSC[C@H](NC(=O)[C@@H](N)[C@@H](C)O)C(=O)N[C@@H](CCCNC(=N)N)C(=O)N[C@@H](CO)C(=O)N[C@@H](CO)C(=O)N[C@@H](C)C(=O)N[C@@H](CCCNC(=N)N)C(=O)N[C@@H](Cc3ccc(O)cc3)C(=O)N2)CSSC[C@H](C(=O)N[C@H](C(=O)O)C(C)C)NC(=O)[C@H](C)NC(=O)[C@H](CC(=O)O)NC(=O)[C@H]([C@@H](C)O)NC1=O`, the Ratio IC50 is 142 in test [1], 0.4 in test [2] and 1 in test [3].

In the case of `CC[C@H](C)[C@@H]1NC(=O)[C@H](CCCNC(=N)N)NC(=O)[C@H](CCCNC(=N)N)NC(=O)[C@@H]2CSSC[C@H](NC(=O)[C@H](Cc3ccc(O)cc3)NC(=O)[C@H](CCCNC(=N)N)NC(=O)CNC(=O)[C@H](CO)NC(=O)[C@H](CO)NC(=O)[C@H](CCCNC(=N)N)NC(=O)[C@@H](NC(=O)[C@H](C)N)CSSC[C@@H](C(=O)N[C@H](C(=O)O)C(C)C)NC(=O)[C@H](C)NC(=O)[C@H](CC(=O)O)NC(=O)[C@H]([C@@H](C)O)NC1=O)C(=O)N[C@@H](CCCNC(=N)N)C(=O)N[C@@H](CO)C(=O)N1CCC[C@H]1C(=O)N[C@@H](Cc1ccc(O)cc1)C(=O)N[C@@H](CC(=O)O)C(=O)N[C@@H](CCCNC(=N)N)C(=O)N[C@@H](CCCNC(=N)N)C(=O)N[C@@H](CCCNC(=N)N)C(=O)N[C@@H](CCCNC(=N)N)C(=O)N[C@@H](Cc1ccc(O)cc1)C(=O)N2`, the Ratio IC50 in test [1] came out at 175; in test [2] it was 0.9; in test [3], 0.9.

Take `CC[C@H](C)[C@@H]1NC(=O)[C@H](CCCNC(=N)N)NC(=O)[C@H](CCCNC(=N)N)NC(=O)[C@@H](NC(=O)[C@H](C)NC(=O)[C@H](CCCNC(=N)N)NC(=O)[C@H](CCCNC(=N)N)NC(=O)[C@H](CCCNC(=N)N)NC(=O)[C@H](CCCNC(=N)N)NC(=O)[C@H](CC(=O)O)NC(=O)[C@H](Cc2ccc(O)cc2)NC(=O)[C@@H]2CCCN2C(=O)[C@H](CO)NC(=O)[C@H](CCCNC(=N)N)NC(=O)[C@@H]2CSSC[C@H](NC(=O)[C@@H](N)[C@@H](C)O)C(=O)N[C@@H](CCCNC(=N)N)C(=O)N[C@@H](CO)C(=O)N[C@@H](CO)C(=O)NCC(=O)N[C@@H](CCCNC(=N)N)C(=O)N[C@@H](Cc3ccc(O)cc3)C(=O)N2)CSSC[C@@H](C(=O)N[C@H](C(=O)O)C(C)C)NC(=O)[C@H](C)NC(=O)[C@H](CC(=O)O)NC(=O)[C@H]([C@@H](C)O)NC1=O`: the Ratio IC50 in test [1] came out at 119; in test [2] it was 1.3; in test [3], 2.9.

In the case of `CC[C@H](C)[C@@H]1NC(=O)[C@H](CCCNC(=N)N)NC(=O)[C@H](CCCNC(=N)N)NC(=O)[C@@H](NC(=O)[C@H](Cc2ccc(O)cc2)NC(=O)[C@H](CCCNC(=N)N)NC(=O)[C@H](CCCNC(=N)N)NC(=O)[C@H](CCCNC(=N)N)NC(=O)[C@H](CCCNC(=N)N)NC(=O)[C@H](CC(=O)O)NC(=O)[C@H](Cc2ccc(O)cc2)NC(=O)[C@@H]2CCCN2C(=O)[C@H](CO)NC(=O)[C@H](CCCNC(=N)N)NC(=O)[C@@H]2CSSC[C@H](NC(=O)[C@@H](N)[C@@H](C)O)C(=O)N[C@@H](CCCNC(=N)N)C(=O)N[C@@H](CO)C(=O)N[C@@H](CO)C(=O)NCC(=O)N[C@@H](CCCNC(=N)N)C(=O)N[C@@H](Cc3ccc(O)cc3)C(=O)N2)CSSC[C@@H](C(=O)N[C@@H](C)C(=O)O)NC(=O)[C@H](C)NC(=O)[C@H](CC(=O)O)NC(=O)[C@H]([C@@H](C)O)NC1=O`, the Ratio IC50 amounted to 50.1 in test [1], 1.2 in test [2] and 1.2 in test [3].

Take `CC[C@H](C)[C@@H]1NC(=O)[C@H](CCCNC(=N)N)NC(=O)[C@H](CCCNC(=N)N)NC(=O)[C@@H]2CSSC[C@H](NC(=O)[C@H](Cc3ccc(O)cc3)NC(=O)[C@H](CCCNC(=N)N)NC(=O)CNC(=O)[C@H](CO)NC(=O)[C@H](CO)NC(=O)[C@H](CCCNC(=N)N)NC(=O)[C@@H](NC(=O)[C@H](C)N)CSSC[C@@H](C(=O)N[C@H](C(=O)O)C(C)C)NC(=O)[C@H](C)NC(=O)[C@H](C)NC(=O)[C@H]([C@@H](C)O)NC1=O)C(=O)N[C@@H](CCCNC(=N)N)C(=O)N[C@@H](CO)C(=O)N1CCC[C@H]1C(=O)N[C@@H](Cc1ccc(O)cc1)C(=O)N[C@@H](CC(=O)O)C(=O)N[C@@H](CCCNC(=N)N)C(=O)N[C@@H](CCCNC(=N)N)C(=O)N[C@@H](CCCNC(=N)N)C(=O)N[C@@H](CCCNC(=N)N)C(=O)N[C@@H](Cc1ccc(O)cc1)C(=O)N2`: the results for the Ratio IC50 in test [1], in test [2] and in test [3] were 218, 1.7 and 2.1, respectively.

As for `CC[C@H](C)[C@@H]1NC(=O)[C@H](CCCNC(=N)N)NC(=O)[C@H](CCCNC(=N)N)NC(=O)[C@@H]2CSSC[C@H](NC(=O)[C@H](Cc3ccc(O)cc3)NC(=O)[C@H](CCCNC(=N)N)NC(=O)CNC(=O)[C@H](CO)NC(=O)[C@H](CO)NC(=O)[C@H](CCCNC(=N)N)NC(=O)[C@@H](NC(=O)[C@@H](N)[C@@H](C)O)CSSC[C@@H](C(=O)N[C@H](C(=O)O)C(C)C)NC(=O)[C@H](C)NC(=O)[C@H](CC(=O)O)NC(=O)[C@H]([C@@H](C)O)NC1=O)C(=O)N[C@@H](CCCNC(=N)N)C(=O)N[C@@H](CO)C(=O)N1CCC[C@H]1C(=O)N[C@@H](Cc1ccc(O)cc1)C(=O)N[C@@H](CC(=O)O)C(=O)N[C@@H](CCCNC(=N)N)C(=O)N[C@@H](CCCNC(=N)N)C(=O)N[C@@H](CCCNC(=N)N)C(=O)N[C@@H](CCCNC(=N)N)C(=O)N[C@@H](C)C(=O)N2`, the values for the Ratio IC50 in test [1], in test [2] and in test [3] were 201, 2.3 and 2.7, respectively.
